According to US6051373, “Methods for screening for inhibitors of the transcription-enhancing activity of the X protein of hepatitis B virus” (Scriptgen Pharmaceuticals, Inc.):
The exact form of at least one protein or probe is not confirmed.

Tests used:
Experiment in all cases: EMSA
[1] = test system: GST-Fos-ZTA chimera (c-Fos 133-162 + ZTA 197-229); conditions: increased by pX; purified recombinant protein; protein details: GST; label: 32P
c-Jun derivative = conditions: enhanced by pX; purified recombinant protein; protein details: His; label: 32P
[2] = test system: C/EBP delta1-2 derivative; conditions: enhanced by pX; site printed in text with a stray F; purified recombinant protein; label: 32P

| Sequence | binding result [1] | binding result (c-Jun derivative) | binding result [2] |
| --- | --- | --- | --- |
| AGCTTTGACTCATCCCGGA (double strand) [collagenase TRE oligoduplex] | binds | binds | – |
| TGCAGATTGCGCAATCTGCA (double strand) [C/EBP binding site] | – | – | binds |
